Results of unrelated studies side by side (data: NIAID ChemDB).

All rows: growth or infection tests; agent: Mycobacterium tuberculosis

Inhibition is in % at the dose shown (toxicity tests: loss of growth or viability). For "inactive" no cut-off is given. Blank or dashed fields: not listed here. a–b is a range or a potency band. MIC50, MIC90 and the like: level of inhibition, or share of isolates inhibited. MIC bound comes from a single tested concentration. ECn is the concentration giving n% inhibition of infection, replication or growth. Conditions beyond the fields shown may differ between rows.

SMILES,read by,cells,mutations,strain,measure,tested at,setting,value
O=C(OCCCl)SC(=S)NCCNC(=S)SC(=O)OCCCl,resazurin,,,H37Rv,inhibition,6.25 µg/mL,,-2%
Nc1ccc(-n2cc(C(=O)O)c(=O)c3ccc(N4CCCCC4)cc32)c(F)c1,BACTEC,,,H37Rv,inhibition,6.25 µg/mL,,0%
CN[C@@H]1[C@H](O[C@H]2[C@H](O[C@H]3[C@H](O)[C@@H](O)[C@H](N=C(N)N)[C@@H](O)[C@@H]3N=C(N)N)O[C@@H](C)[C@]2(O)C=O)O[C@@H](CO)[C@H](O)[C@H]1O,,,,1 isolates,MIC,,,<1 µg/mL
CCOC(=O)C(Cc1ccccc1)NP(=O)(CCC(=O)N1C[C@H](OCC(O)P(=O)(NC(Cc2ccccc2)C(=O)OCC)NC(Cc2ccccc2)C(=O)OCC)[C@H](n2cnc3c(=O)[nH]c(N)nc32)C1)NC(Cc1ccccc1)C(=O)OCC,resazurin / low oxygen / fluorescence,,,H37Rv,MIC90,,,29 µM
COc1ccccc1C1OC2=C(Nc3ccc([N+](=O)[O-])cc3N2)C1=O,BACTEC,,,H37Rv,inhibition,12.5 µg/mL,,-19%
CC(=O)c1c(CN2CCN(c3ccc([N+](=O)[O-])cc3)CC2)n([O-])c2ccccc2[n+]1=O,BACTEC,,,H37Rv,inhibition,6.25 µg/mL,,0%
Cc1cc(C)c2c(n1)S(=O)(=O)N(C/C=C/CN1CCN(c3ncccn3)CC1)C2=O,BACTEC,,,H37Rv,inhibition,12.5 µg/mL,,0%
CC(=O)c1c(C)n([O-])c2ccc(Cl)cc2[n+]1=O,,,,H37Rv,MIC,,inside macrophages,0.78 µg/mL
CC(=O)OC[C@H]1O[C@@H](c2cccc3c2c2ccccc2n3S(=O)(=O)c2ccccc2)[C@H](O)[C@@H]1O,BACTEC,,,H37Rv,inhibition,12.5 µg/mL,,59%
CC1CN(c2cc3c(cc2F)c(=O)c(C(=O)O)cn3-c2ccc([N+](=O)[O-])cc2F)CC(C)N1,BACTEC,,,H37Rv,inhibition,6.25 µg/mL,,98%
COc1cc(Cc2cnc(/N=C3\C(=O)N(CN4CCN(c5c(F)cc6c(=O)c(C(=O)O)cn(C7CC7)c6c5OC)CC4C)c4ccc(Br)cc43)nc2N)cc(OC)c1OC,BACTEC,,,,inhibition,6.25 µg/mL,,0%
Cc1ccc2c(c1C)-c1c(ccc(C)c1C)C(=O)C2=O,,,,H37Rv,MIC bound,,,<6.25 µg/mL
COc1c(N2CCNC(C)C2)c(F)cc2c(=O)c(C(=O)O)cn(C3CC3)c12,,,,T912 isoniazid- and rifampicin-resistant,MIC,,,0.12 µg/mL
CCOC(=O)c1ccc(N2CCN(CCn3c(-c4ccc5c(c4)OCO5)nc4cc(C(=O)OCC)ccc43)CC2)c(N)c1,resazurin,,Isoniazid-resistant,INHR-MTB,MIC,,,41.72 µM
O=C1C2C3C=CC(C3)C2C(=O)N1c1ncc([N+](=O)[O-])s1,resazurin,,,H37Rv,MIC bound,,,>6.25 µg/mL
CCOC(=O)c1ccc(N2CCN(CCn3c(-c4ccc(OC(F)(F)F)cc4)nc4cc(C(=O)OCC)ccc43)CC2)c(N)c1,resazurin,,Isoniazid-resistant,INHR-MTB,MIC,,,16.25 µM
O=C(O)c1cn(-c2ccc([N+](=O)[O-])cc2F)c2cc(N3CCNCC3)c(F)cc2c1=O,BACTEC,,,H37Rv,inhibition,6.25 µg/mL,,37%
CO[C@H]1/C=C/O[C@@]2(C)Oc3c(C)c(O)c4c(O)c(c5sc(N)nc5c4c3C2=O)NC(=O)/C(C)=C\C=C\[C@H](C)[C@H](O)[C@@H](C)[C@@H](O)[C@@H](C)[C@H](OC(C)=O)[C@@H]1C,,VERO,,H37Rv,MIC,,,0.39 µg/mL
CO[C@H]1/C=C/O[C@@]2(C)Oc3c(C)c(O)c4c(=O)c(c5oc6cc(N7CCN(CC(C)C)CC7)cc(=O)c6nc5c4c3=C2O)NC(=O)/C(C)=C\C=C\[C@H](C)[C@H](O)[C@@H](C)[C@@H](O)[C@@H](C)[C@H](OC(C)=O)[C@@H]1C,,,,H37Rv,MIC,,,0.035 µg/mL
Cc1cc(C)c2c(=O)n(CC(O)CN3CCN(c4ccccc4)CC3)sc2n1,BACTEC,,,H37Rv,EC50,,,>12.5 µg/mL
CC12CCC3C(CCC4(O)C=CCCC34C=O)C1(O)CC(O)C2c1ccc(=O)oc1,BACTEC,,,H37Rv,MIC,,,≥12.5 µg/mL
CC(=O)c1c(CBr)n([O-])c2cc(Cl)c(Cl)cc2[n+]1=O,BACTEC,,,H37Rv,inhibition,6.25 µg/mL,,0%
S=C1SCN(Cc2ccccc2)CN1Cc1ccccc1,BACTEC,,,H37Rv,MIC bound,,,≤12.5 µg/mL
Cc1c2cc(O)c(=O)cc-2oc2cc(O)c(O)cc12,broth dilution,,,H37Rv,MIC90,,,62 µg/mL
COC(=O)[C@H]1[C@H](O)[C@H](C)[C@@H](O)[C@@H](C)/C=C(\C)C2=C3C(=C(C)C(=O)c4c(O)c(c(C)c(OC(C)=O)c43)NC(=O)/C(C)=C/C=C\[C@@H](C)C(O)[C@@H](C)[C@H]1O)OCO2,,,,EMB-R,MIC,,,0.8 µg/mL
C/C=C/C(=O)Oc1cccc2c1C(=O)C=C(C)C2=O,resazurin,,,H37Rv,MIC,,,15.6 µM
Fc1ccc(NC(=S)Nc2ncc(C3CCC3)o2)cc1,agar,,,H37Rv,MIC,,,0.68 µM
S=C(NCc1ccccc1)[S][Sn]([S]C(=S)NCc1ccccc1)([c]1ccccc1)[c]1ccccc1,BACTEC,,,H37Rv,inhibition,128 µg/mL,,100%
CC(=O)NCCCC[C@H](OC(C)=O)[C@@H](COC(C)=O)OC(C)=O,agar,,,H37Rv,inhibition,12.5 µg/mL,,100%
COc1cc(Cc2cnc(/N=C3\C(=O)N(CN4CCN(C)CC4)c4ccc(Br)cc43)nc2N)cc(OC)c1OC,BACTEC,,,,inhibition,6.25 µg/mL,,38%
COc1ccccc1N1CCN(Cn2sc3nc(C)cc(C)c3c2=O)CC1,BACTEC,,,H37Rv,inhibition,12.5 µg/mL,,100%
CCCCN(CCCC)CN1C(=O)/C(=N\c2ncc(Cc3cc(OC)c(OC)c(OC)c3)c(N)n2)c2cc(Br)ccc21,BACTEC,,,,inhibition,6.25 µg/mL,,32%
O=[n+]1c2ccccc2n([O-])c2ccccc21,,,,RMP-R,MIC,,,3.1 µg/mL
Cc1c(C(=O)c2ccccc2)[n+](=O)c2ccccc2n1[O-],BACTEC,VERO,,H37Rv,inhibition,6.25 µg/mL,,98%
CC(=O)OC[C@@H](OC(C)=O)[C@@H](/C=C/CC(C)[N+](=O)[O-])OC(C)=O,agar,,,H37Rv,inhibition,25 µg/mL,,inactive
O=[N+]([O-])c1ccnc(NC(=S)Nc2ncc(C3CCC3)o2)c1,agar,,,H37Rv,MIC,,,0.15 µM
CC(C)C[C@@H]1NC(=O)[C@H](Cc2c[nH]c3ccccc23)NC(=O)[C@@H](CCCN)NC(=O)[C@H](CC(N)=O)NC(=O)[C@H](C(C)C)NC(=O)[C@@H](CC(C)C)NC1=O,turbidity,,,H37Rv,MIC90,,,2.97 µM
S=C(Nc1ccccn1)Nc1ncc(C2CCC2)o1,agar,,,H37Rv,MIC,,,6.42 µM
CC(=O)OC[C@@H](OC(C)=O)[C@H](/C=C/C=C/[N+](=O)[O-])OC(C)=O,agar,,,H37Rv,inhibition,25 µg/mL,,inactive
S=C(Nc1ccccc1)Nc1ncc(C2CCC2)o1,agar,,,MDR clinical isolate,MIC,,,5.73 µM
Cc1cc(C)c2c(=O)n(CC(O)CN3CCN(c4ccccn4)CC3)sc2n1,BACTEC,,,H37Rv,inhibition,12.5 µg/mL,,12%
CC(=O)OC[C@@H](OC(C)=O)[C@@H](/C=C/C(O)C[N+](=O)[O-])OC(C)=O,agar,,,H37Rv,inhibition,12.5 µg/mL,,inactive
Cc1ccc(NC(=S)Nc2ncc(C3CCC3)o2)cc1,agar,,,MDR clinical isolate,MIC,,,6.12 µM
CC(=O)c1c(C)n([O-])c2ccc(C)cc2[n+]1=O,,,,H37Rv,MIC,,inside macrophages,3.13 µg/mL
NC(=O)CCSC(N)=S,BACTEC,,,H37Rv,MIC,,,≥128 µg/mL
CCOC(=O)c1ccc(N2CCN(CCn3c(-c4ccccc4)nc4cc(C(=O)OCC)ccc43)CC2)c(N)c1,resazurin,,,H37Rv,MIC,,,6.219 µM
COc1ccc2c(c1)[n+](=O)c(C(=O)c1ccccc1)c(C)n2[O-],BACTEC,,,H37Rv,EC50,,,>6.25 µg/mL
C1CCNCC1.S=C(S)N1CCCCC1,,VERO,,H37Rv,MIC,,,0.8 µg/mL
CC(=O)OCC1=C(C(=O)O)N2C(=O)[C@@H](NC(=O)CSc3ccncc3)[C@H]2SC1,,,,16 strains,MIC,,,100–400 µg/mL
CC1=CC(=O)c2c(O)cccc2C1=O,resazurin,,,H37Rv,MIC,,,21.3 µM
CC(=O)NCCCC[C@@H](OC(C)=O)[C@@H](COC(C)=O)OC(C)=O,agar,,,H37Rv,inhibition,12.5 µg/mL,,100%
NNC(=O)c1ccncc1,resazurin,,,H37Rv,MIC,,,0.05 µg/mL
CC(C)C[C@@H]1NC(=O)[C@H](Cc2c[nH]c3ccccc23)NC(=O)[C@@H](CCCCN)NC(=O)[C@H](CC(N)=O)NC(=O)[C@H](C(C)C)NC(=O)[C@@H](CC(C)C)NC1=O,turbidity,,,CDC1551,EC50,,,0.47 µM
CC(=O)NNc1nc(C)c(C(=O)NNC(=O)C(=O)Nc2c([N+](=O)[O-])ccc(C)c2C)s1,resazurin,,,H37Rv,inhibition,6.25 µg/mL,,16%
CCn1cc(C(=O)O)c(=O)c2cc(F)c(N3CCN(Cc4ccc5cccc(O)c5n4)CC3)cc21,BACTEC,,,H37Rv,inhibition,6.25 µg/mL,,86%
CC(=O)NCC(CC[C@H](OC(C)=O)[C@@H](COC(C)=O)OC(C)=O)OC(C)=O,agar,,,H37Rv,inhibition,25 µg/mL,,inactive
Cc1ccc(S(=O)(=O)N(CC(=O)O)c2c[nH]c(C(=O)O)c2)cc1,BACTEC,,,H37Rv,inhibition,6.25 µg/mL,,0%
C[C@]1(COc2ccc(OC(F)(F)F)cc2)Cn2cc([N+](=O)[O-])nc2O1,,,,H37Rv,MIC,,,0.39 µg/mL
CCCCCCCCS(=O)(=O)CC(N)=O,,,,OT2724,MIC,,,≤25 µg/mL
COc1ccccc1N1CCN(CN2C(=O)/C(=N\c3ncc(Cc4cc(OC)c(OC)c(OC)c4)c(N)n3)c3cc(Br)ccc32)CC1,BACTEC,,,,inhibition,6.25 µg/mL,,40%
COc1ccc2c(c1)c(CCN)c(C)n2C,resazurin,,,H37Rv,inhibition,6.25 µg/mL,,29%
O=[N+]([O-])c1ccc(NC(=S)Nc2ncc(C3CCC3)o2)cc1,agar,,,H37Rv,MIC,,,0.31 µM
CC(=O)OC[C@@H](OC(C)=O)[C@H](/C=C/CC[N+](=O)[O-])OC(C)=O,agar,,,H37Rv,inhibition,25 µg/mL,,100%
CCCCCSc1nc2c(=O)[nH][nH]c(=O)c2n1Cc1ccccc1,BACTEC,,,H37Rv,inhibition,12.5 µg/mL,,0%
Cc1cc(C)c2c(=O)n(CC(O)CN3CCN(c4cccc(C(F)(F)F)c4)CC3)sc2n1,BACTEC,,,H37Rv,EC50,,,<12.5 µg/mL
CC(C)C[C@@H]1NC(=O)[C@H](Cc2c[nH]c3ccccc23)NC(=O)[C@@H](CCCN=C(N)N)NC(=O)[C@H](CC(N)=O)NC(=O)[C@H](C(C)C)NC(=O)[C@@H](CC(C)C)NC1=O,turbidity,,,CDC1551,MIC90,,,0.99 µM
Cc1cc(C)c2c(=O)n(CC(=O)OCCN3CCN(c4ccccc4)CC3)sc2n1,BACTEC,,,H37Rv,EC50,,,>12.5 µg/mL
CCC(=O)Oc1cccc2c1C(=O)C=C(C)C2=O,resazurin,,,H37Rv,MIC,,,16.4 µM
CCOC(=O)N1C=Cc2c(c3ccccc3n2C)N1C(=O)OCC,resazurin,,,H37Rv,MIC bound,,,>6.25 µg/mL
Cc1cc(C)c2c(=O)n(CCCN3CCN(c4cccc(Cl)c4)CC3)sc2n1,BACTEC,,,H37Rv,EC50,,,<12.5 µg/mL
CCOC(=O)NC1C2CC(=O)C(O2)C1OCc1ccccc1,BACTEC,,,H37Rv,inhibition,12.5 µg/mL,,7%
CC(C)C[C@@H]1NC(=O)[C@H](Cc2c[nH]c3ccccc23)NC(=O)[C@H](CCCCN)NC(=O)[C@H](CC(N)=O)NC(=O)[C@H](C(C)C)NC(=O)[C@@H](CC(C)C)NC1=O,turbidity,,,HN353,EC50,,,>30 µM
O=C1C(O)=C(c2ccccc2)C(=O)C(O)=C1c1ccccc1,BACTEC,,,H37Rv,inhibition,12.8 µg/mL,,3%
COc1ccccc1N1CCN(CCCCN2C(=O)c3c(C)cc(C)nc3S2(=O)=O)CC1,BACTEC,,,H37Rv,inhibition,12.5 µg/mL,,0%